{"sequences": {"note": "Sequences of proteins named here, by UniProt entry; tags and fusion partners are left off. A change or cut given only in a name is not applied to a line headed by its entry.", "UniProt Q9UBH6": "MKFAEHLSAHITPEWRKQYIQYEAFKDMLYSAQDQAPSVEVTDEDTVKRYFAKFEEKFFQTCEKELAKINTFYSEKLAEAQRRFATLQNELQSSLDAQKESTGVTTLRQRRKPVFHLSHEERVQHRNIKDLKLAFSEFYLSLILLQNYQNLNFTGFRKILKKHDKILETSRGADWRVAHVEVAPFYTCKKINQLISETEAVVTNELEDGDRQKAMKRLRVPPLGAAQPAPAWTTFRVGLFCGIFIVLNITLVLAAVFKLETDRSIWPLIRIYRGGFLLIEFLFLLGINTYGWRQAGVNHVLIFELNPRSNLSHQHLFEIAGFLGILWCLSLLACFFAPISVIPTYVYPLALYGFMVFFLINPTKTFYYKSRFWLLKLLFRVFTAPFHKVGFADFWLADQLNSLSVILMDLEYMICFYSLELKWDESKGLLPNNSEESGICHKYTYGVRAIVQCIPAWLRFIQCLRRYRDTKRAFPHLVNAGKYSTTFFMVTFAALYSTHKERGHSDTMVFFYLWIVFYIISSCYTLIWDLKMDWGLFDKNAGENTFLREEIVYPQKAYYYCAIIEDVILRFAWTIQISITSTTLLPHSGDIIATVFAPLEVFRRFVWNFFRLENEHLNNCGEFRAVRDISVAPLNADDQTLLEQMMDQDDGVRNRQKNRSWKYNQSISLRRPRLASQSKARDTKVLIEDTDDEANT"}, "source": "patent US20060084791A1", "biological_target": "human polytropic/xenotropic receptor encoded by the human RMC1 locus (human) (UniProt Q9UBH6)", "experiment": "cell-based or functional assay"}
{"substance": "SL3-2 envelope polypeptide (wild type envelope protein of Murine Leukaemia Virus SL3-2) (from UniProt P03388 33-640)", "values": [{"measurement": "titer of mini-virus on HeLa cells", "value": 0, "unit": "cfu/mL"}]}
